Source: patent US20060167238
The exact form of at least one protein or probe is not confirmed. For part of these data: Tags and fusion partners may be left off the protein sequences shown.

Tests used:
Assay in all cases: EMSA
[1] = biological target: EfaR (Enterococcus faecalis) (UniProt Q93CH5); conditions: purified recombinant protein; protein details: untagged (pQN vector)
SirR = biological target: T1, SirR (UniProt Q5HRA0); conditions: purified recombinant protein
T1 sequence (looked up, limits assumed): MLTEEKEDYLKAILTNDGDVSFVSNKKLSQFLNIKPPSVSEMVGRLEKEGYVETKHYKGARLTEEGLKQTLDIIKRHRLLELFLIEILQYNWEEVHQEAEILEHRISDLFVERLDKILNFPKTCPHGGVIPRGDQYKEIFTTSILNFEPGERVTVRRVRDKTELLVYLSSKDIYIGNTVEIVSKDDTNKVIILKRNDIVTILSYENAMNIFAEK

[2] = biological target: DtxR (Corynebacterium diphtheriae) (UniProt P0DJL7); conditions: purified recombinant protein

Measured: binding result

GCATTGATTTCAGAGCACCCTTATAATTAGGATAGCTTTACCTAATTATTTTATGAG (double strand) [toxPO]
binds: [1] | SirR | [2]
